A short description of this data set: Sensing test of smell (thirteen examiners). To be noted: average score of thirteen examiners; for Smell magnitude indication: scale 0 not sensed to 5 extremely strongly sensed, control IF-1000 score set as 5; for Pleasant/unpleasant smell indication: scale +3 pleasant to -3 unpleasant, control IF-1000 score set as -3.

Consider `COc1ccc(OCOCC#CI)cc1` [Derivative III-a, 1-[[(3-Iodo-2-propynyl)oxy]methoxy]-4-methoxybenzene], for which the Smell magnitude indication is given as 1.5 and the Pleasant/unpleasant smell indication is -0.5.
Taken in the same sequence, the figures for `CCOc1ccc(OCOCC#CI)cc1` [Derivative III-b, 1-Ethoxy-4-[[(3-iodo-2-propynyl)oxy]methoxy]benzene] were 1.1 and -0.1.
Taken in the same sequence, the figures for `COc1ccccc1OCOCC#CI` [Derivative III-c, 1-[[(3-Iodo-2-propynyl)oxy]methoxy]-2-methoxybenzene] were 1.0 and “+0.2”.
In the case of `CCOc1ccccc1OCOCC#CI` [Derivative III-d, 1-Ethoxy-2-[[(3-iodo-2-propynyl)oxy]methoxy]benzene], the Smell magnitude indication was determined as 1.1 and the Pleasant/unpleasant smell indication is given as -0.2.
For the compound `COc1ccc(OC(C)OCC#CI)cc1` (centres unmarked) [Derivative III-e, 1-[1-[(3-Iodo-2-propynyl)oxy]ethoxy]-4-methoxybenzene], the Smell magnitude indication amounted to 1.2 and the Pleasant/unpleasant smell indication is -0.3.
Turning to `CCOc1ccc(OC(C)OCC#CI)cc1` (centres unmarked) [Derivative III-f, 1-Ethoxy-4-[1-[(3-Iodo-2-propynyl)oxy]ethoxy]benzene], the Smell magnitude indication was 2.8 and the Pleasant/unpleasant smell indication was -0.6.
`COc1ccccc1OC(C)OCC#CI` (centres unmarked) [Derivative III-g, 1-[1-[(3-Iodo-2-propynyl)oxy]ethoxy]-2-methoxybenzene]: the Smell magnitude indication came to 2.9 and the Pleasant/unpleasant smell indication was -0.2.
`CCOc1ccccc1OC(C)OCC#CI` (centres unmarked) [Derivative III-h, 1-Ethoxy-2-[1-[(3-iodo-2-propynyl)oxy]ethoxy]benzene] showed a Smell magnitude indication of 2.9 and a Pleasant/unpleasant smell indication of -1.2.
Regarding `N#Cc1ccc(OCOCC#CI)cc1` [Derivative III-i, 1-Cyano-4-[[(3-iodo-2-propynyl)oxy]methoxy]benzene], the Smell magnitude indication is 2.0 and the Pleasant/unpleasant smell indication was -0.8.
`Clc1ccc(OCOCC#CI)cc1` [IF-1000, 1-Chloro-4-[[(3-iodo-2-propynyl)oxy]methoxy]benzene, reference compound] gave a Smell magnitude indication of 5 and a Pleasant/unpleasant smell indication of -3.

(Values after patent US6143311A, “Iodopropargyl derivatives and antimicrobial agents comprising them as an active ingredient” (Nagase & Company, Ltd., priority 1997, dated 2000).)
